Experimental findings from article PMC8865919, “Penicillin Binding Proteins and β-Lactamases of Mycobacterium tuberculosis: Reexamination of the Historical Paradigm” (mSphere, 2022) are described below.

Chains of the proteins cited; added tags and fusions are not shown. Residues count along the entry.
UniProt I6Y204, 23-291 limits assumed: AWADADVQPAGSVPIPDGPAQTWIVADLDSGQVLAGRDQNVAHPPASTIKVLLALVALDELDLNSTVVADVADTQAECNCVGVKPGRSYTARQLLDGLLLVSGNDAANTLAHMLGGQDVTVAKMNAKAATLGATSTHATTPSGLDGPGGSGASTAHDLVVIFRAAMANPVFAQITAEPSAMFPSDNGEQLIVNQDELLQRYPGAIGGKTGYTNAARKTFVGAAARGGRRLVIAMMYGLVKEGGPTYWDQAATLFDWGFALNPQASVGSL
UniProt O06380, 35-461 limits assumed: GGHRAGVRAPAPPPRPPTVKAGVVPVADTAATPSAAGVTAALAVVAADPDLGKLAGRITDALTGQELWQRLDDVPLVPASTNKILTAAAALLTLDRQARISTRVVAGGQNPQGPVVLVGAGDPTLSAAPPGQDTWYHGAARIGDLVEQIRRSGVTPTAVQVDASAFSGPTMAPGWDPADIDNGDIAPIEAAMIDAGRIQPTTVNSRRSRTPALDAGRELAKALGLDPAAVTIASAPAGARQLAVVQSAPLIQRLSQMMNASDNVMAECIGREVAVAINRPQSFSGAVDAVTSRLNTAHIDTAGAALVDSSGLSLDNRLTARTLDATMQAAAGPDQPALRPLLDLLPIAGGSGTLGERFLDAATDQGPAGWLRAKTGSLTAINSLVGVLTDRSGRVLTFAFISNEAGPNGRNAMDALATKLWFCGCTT
UniProt I6YGX2, 40-810 limits assumed: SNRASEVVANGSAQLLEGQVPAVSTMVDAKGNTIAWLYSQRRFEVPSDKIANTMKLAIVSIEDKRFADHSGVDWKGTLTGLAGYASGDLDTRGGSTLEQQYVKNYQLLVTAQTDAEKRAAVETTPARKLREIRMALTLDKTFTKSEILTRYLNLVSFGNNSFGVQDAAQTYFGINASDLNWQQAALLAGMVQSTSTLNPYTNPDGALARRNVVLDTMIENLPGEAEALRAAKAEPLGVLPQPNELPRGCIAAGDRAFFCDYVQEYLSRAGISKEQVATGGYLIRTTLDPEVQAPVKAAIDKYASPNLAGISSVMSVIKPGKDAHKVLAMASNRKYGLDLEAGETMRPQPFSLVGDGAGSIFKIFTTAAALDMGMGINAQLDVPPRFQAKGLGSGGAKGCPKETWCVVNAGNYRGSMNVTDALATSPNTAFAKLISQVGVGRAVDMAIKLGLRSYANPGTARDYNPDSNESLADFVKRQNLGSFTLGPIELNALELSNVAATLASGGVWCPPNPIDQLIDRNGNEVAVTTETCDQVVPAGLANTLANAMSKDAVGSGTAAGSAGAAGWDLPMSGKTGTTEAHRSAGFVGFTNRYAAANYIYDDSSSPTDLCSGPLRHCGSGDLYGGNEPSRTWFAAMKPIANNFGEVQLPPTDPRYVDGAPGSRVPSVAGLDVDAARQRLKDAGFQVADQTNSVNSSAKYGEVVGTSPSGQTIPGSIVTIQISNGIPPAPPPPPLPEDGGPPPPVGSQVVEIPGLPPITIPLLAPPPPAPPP

Holding throughout (experiment): BOCILLIN FL fluorescence inhibition, SDS-PAGE
Conditions in all cases: read-out: FIC50; covalent; competition with 50 μM BOCILLIN FL added after 30 min preincubation; ~200 pmol protein; Tris-Cl pH 7.4; 25°C; tested form: K salt

The target of one assay is DacB2 (Rv2911) (Mycobacterium tuberculosis, UniProt I6Y204). The source says: BOCILLIN FL fluorescence inhibition, SDS-PAGE on DacB2 (Rv2911)
The next assay addresses DacB (Rv3627c) (Mycobacterium tuberculosis, UniProt O06380). The text has this: BOCILLIN FL fluorescence inhibition, SDS-PAGE on DacB (Rv3627c)
Another assay concerns the target PonA2 (Rv3682) (Mycobacterium tuberculosis, UniProt I6YGX2). The text has this: BOCILLIN FL fluorescence inhibition, SDS-PAGE on PonA2 (Rv3682)

SMILES strings stand for the structures.

Regarding `C[C@@H](O)[C@H]1C(=O)N2C(C(=O)O)=C(SC3CN(C4=NCCS4)C3)S[C@H]12`, the IC50 was determined as 11.8 µM on DacB2 (Rv2911), 1.2 µM at DacB (Rv3627c) and 13.8 µM on PonA2 (Rv3682).
